Test results reported in PMC11900278, “Expression, Characterization and Selective Chemical Inhibition of Essential Schistosoma mansoni Tegumental Acetylcholinesterase (SmTAChE)” (2025).

Protein sequences, listed by entry. Tags and fused reporters are not part of them. Residues count along the entry.
UniProt A0A3Q0KMM5, 27-661 limits assumed: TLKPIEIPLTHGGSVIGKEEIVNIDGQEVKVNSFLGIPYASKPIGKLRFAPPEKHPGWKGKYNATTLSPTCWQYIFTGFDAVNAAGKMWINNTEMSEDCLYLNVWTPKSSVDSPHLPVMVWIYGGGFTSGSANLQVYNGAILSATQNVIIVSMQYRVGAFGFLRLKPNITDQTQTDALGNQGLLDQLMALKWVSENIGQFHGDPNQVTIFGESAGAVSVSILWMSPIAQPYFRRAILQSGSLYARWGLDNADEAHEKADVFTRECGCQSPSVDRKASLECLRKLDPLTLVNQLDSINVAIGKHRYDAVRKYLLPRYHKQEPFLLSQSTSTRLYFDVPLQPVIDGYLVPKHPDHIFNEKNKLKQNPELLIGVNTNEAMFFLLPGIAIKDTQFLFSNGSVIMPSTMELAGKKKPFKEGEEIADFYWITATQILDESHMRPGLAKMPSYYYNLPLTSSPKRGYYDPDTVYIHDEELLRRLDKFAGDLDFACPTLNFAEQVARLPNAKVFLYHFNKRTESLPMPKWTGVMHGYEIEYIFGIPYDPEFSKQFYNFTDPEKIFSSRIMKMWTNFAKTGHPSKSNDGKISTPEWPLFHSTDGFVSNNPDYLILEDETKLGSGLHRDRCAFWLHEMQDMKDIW
UniProt A0A3Q0KMM5, 26-668 limits assumed: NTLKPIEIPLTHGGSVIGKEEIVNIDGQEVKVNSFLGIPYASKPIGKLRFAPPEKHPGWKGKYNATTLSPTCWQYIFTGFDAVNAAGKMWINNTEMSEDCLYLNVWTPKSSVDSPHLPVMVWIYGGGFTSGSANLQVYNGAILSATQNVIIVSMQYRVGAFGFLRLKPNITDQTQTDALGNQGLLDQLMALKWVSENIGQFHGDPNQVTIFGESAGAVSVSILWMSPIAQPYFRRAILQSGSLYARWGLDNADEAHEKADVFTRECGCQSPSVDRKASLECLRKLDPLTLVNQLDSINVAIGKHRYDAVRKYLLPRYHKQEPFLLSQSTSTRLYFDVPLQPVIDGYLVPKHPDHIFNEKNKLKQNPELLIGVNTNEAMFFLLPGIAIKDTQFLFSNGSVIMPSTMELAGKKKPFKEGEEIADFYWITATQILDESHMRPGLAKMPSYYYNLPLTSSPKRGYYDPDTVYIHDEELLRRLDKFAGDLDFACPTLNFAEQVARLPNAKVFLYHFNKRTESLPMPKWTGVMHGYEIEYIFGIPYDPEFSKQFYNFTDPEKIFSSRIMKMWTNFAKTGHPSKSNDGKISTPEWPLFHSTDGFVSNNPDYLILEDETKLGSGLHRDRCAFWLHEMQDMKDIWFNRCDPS

How the values were obtained:
[1] = target: rSmTAChE (Schistosoma mansoni, UniProt A0A3Q0KMM5); test: IC50 determination with rSmTAChE (Ellman, 384-well); conditions: tested form: dibromide
[2] = target: tegumental AChE activity in live schistosomula parasites (Schistosoma mansoni, UniProt A0A3Q0KMM5); test: Inhibitor impact on tegumental AChE activity of live schistosomula; conditions: read-out: IC50 Schistosomula, tested form: dibromide

C=CC[N+](C)(C)c1ccc(CCC(=O)CCc2ccc([N+](C)(C)CC=C)cc2)cc1
inhibition of rSmTAChE (in words) ([1]; increasing concentrations of inhibitor): selective inhibition
IC50 ([1]; read-out: IC50 rSmTAChE, rSmTAChE): 101 µM
IC50 [2]: 32 µM
